Assay results reported in patent US20220089698A1, “ANTIBODIES THAT TARGET HIV GP120 AND METHODS OF USE” (published 2022).

B1: Antibody 1.1.110-1 (antibody, human IgG1, kappa)
heavy: QVQLLQSGAAVTKPGASVRVSCEASGYNIRDYFIHWWRQAPGQGLQWVGWINPKTGQPNNPRQFQGRVSLTRHASWDFDTFSFYMDLKALRSDDTAVYFCARQRSDYWDFDVWGSGTQVTVSSASTKGPSVFPLAPSSKSTSGGTAALGCLVKDYFPEPVTVSWNSGALTSGVHTFPAVLQSSGLYSLSSVVTVPSSSLGTQTYICNVNHKPSNTKVDKKVEPKSCDKTHTCPPCPAPELLAGPDVFLFPPKPKDTLMISRTPEVTCVVVDVSHEDPEVKFNWYVDGVEVHNAKTKPREEQYNSTYRVVSVLTVLHQDWLNGKEYKCKVSNKALPLPEEKTISKAKGQPREPQVYTLPPSREEMTKNQVSLTCLVKGFYPSDIAVEWESNGQPENNYKTTPPVLDSDGSFFLYSKLTVDKSRWQQGNVFSCSVLHEALHSHYTQKSLSLSPGK
light: not shown
B2: Antibody 1.1.111-1 (antibody, human IgG1, kappa)
heavy: B1 heavy
light: not shown

Experiments:
Test in all cases: cell-based or functional assay
[1] = target: HIV-1 envelope glycoprotein gp120 of virus 7596 (HIV-1)
[2] = target: HIV-1 envelope glycoprotein gp120 of virus 7576 (HIV-1)
[3] = target: HIV-1 envelope glycoprotein gp120 of virus 7141 (HIV-1)
[4] = target: HIV-1 envelope glycoprotein gp120 of virus 7015 (HIV-1)
[5] = target: HIV-1 envelope glycoprotein of virus WITO (HIV-1)
[6] = target: HIV-1 envelope glycoprotein gp120 of virus 8398 (HIV-1)
[7] = target: HIV-1 envelope glycoprotein gp120 of virus CH058 (HIV-1)
[8] = target: HIV-1 envelope glycoprotein gp120 of virus THRO (HIV-1)
[9] = target: HIV-1 envelope glycoprotein gp120 of virus 92HT593 (HIV-1)
[10] = target: HIV-1 envelope glycoprotein gp120 of virus 7352 (HIV-1)
[11] = target: HIV-1 envelope glycoprotein gp120 of virus 8117 (HIV-1)
[12] = target: HIV-1 envelope glycoprotein gp120 of virus REJO (HIV-1)
[13] = target: HIV-1 envelope glycoprotein gp120 of virus RHPA (HIV-1)
[14] = target: HIV-1 envelope glycoprotein gp120 of virus 7007 (HIV-1)
[15] = target: HIV-1 envelope glycoprotein gp120 of virus 8176 (HIV-1)
[16] = target: HIV-1 envelope glycoprotein gp120 of virus 8320 (HIV-1)
[17] = target: HIV-1 envelope glycoprotein gp120 of virus 7467 (HIV-1)
[18] = target: HIV-1 envelope glycoprotein gp120 of virus CH040 (HIV-1)
[19] = target: HIV-1 envelope glycoprotein gp120 of virus 92US727 (HIV-1)
[20] = target: HIV-1 envelope glycoprotein gp120 of virus 7103 (HIV-1)
[21] = target: HIV-1 envelope glycoprotein gp120 of virus 8110 (HIV-1)
[22] = target: HIV-1 envelope glycoprotein gp120 of virus CH106 (HIV-1)
[23] = target: HIV-1 envelope glycoprotein gp120 of virus 7051 (HIV-1)
[24] = target: HIV-1 envelope glycoprotein gp120 of virus 7552 (HIV-1)
[25] = target: HIV-1 envelope glycoprotein gp120 of virus 8089 (HIV-1)
[26] = target: HIV-1 envelope glycoprotein gp120 of virus 8339 (HIV-1)
[27] = target: HIV-1 envelope glycoprotein gp120 of virus 1012 (HIV-1)
[28] = target: HIV-1 envelope glycoprotein gp120 of virus 8318 (HIV-1)
[29] = target: HIV-1 envelope glycoprotein gp120 of virus 1003 (HIV-1)
[30] = target: HIV-1 envelope glycoprotein gp120 of virus 7595 (HIV-1)
[31] = target: HIV-1 envelope glycoprotein gp120 of virus 7714 (HIV-1)
[32] = target: HIV-1 envelope glycoprotein gp120 of virus 92US657 (HIV-1)
[33] = target: HIV-1 envelope glycoprotein gp120 of virus 8134 (HIV-1)
[34] = target: HIV-1 envelope glycoprotein gp120 of virus CH077 (HIV-1)
[35] = target: HIV-1 envelope glycoprotein gp120 of virus 92US712 (HIV-1)
[36] = target: HIV-1 envelope glycoprotein gp120 of virus BaL (HIV-1)
[37] = target: HIV-1 envelope glycoprotein gp120 of virus 8106 (HIV-1)
[38] = target: HIV-1 envelope glycoprotein gp120 of virus 1489 (HIV-1)
[39] = target: HIV-1 envelope glycoprotein gp120 of virus 1413 (HIV-1)
[40] = target: HIV-1 envelope glycoprotein gp120 of virus 8359 (HIV-1)

| Binder | HIV Neutralization Potency [1] [µg/mL] | HIV Neutralization Potency [2] [µg/mL] | HIV Neutralization Potency [3] [µg/mL] | HIV Neutralization Potency [4] [µg/mL] | HIV Neutralization Potency [5] [µg/mL] | HIV Neutralization Potency [6] [µg/mL] | HIV Neutralization Potency [7] [µg/mL] | HIV Neutralization Potency [8] [µg/mL] | HIV Neutralization Potency [9] [µg/mL] | HIV Neutralization Potency [10] [µg/mL] | HIV Neutralization Potency [11] [µg/mL] | HIV Neutralization Potency [12] [µg/mL] | HIV Neutralization Potency [13] [µg/mL] | HIV Neutralization Potency [14] [µg/mL] | HIV Neutralization Potency [15] [µg/mL] | HIV Neutralization Potency [16] [µg/mL] | HIV Neutralization Potency [17] [µg/mL] | HIV Neutralization Potency [18] [µg/mL] | HIV Neutralization Potency [19] [µg/mL] | HIV Neutralization Potency [20] [µg/mL] | also measured |
| --- | --- | --- | --- | --- | --- | --- | --- | --- | --- | --- | --- | --- | --- | --- | --- | --- | --- | --- | --- | --- | --- |
| B1 | 14.9 | 0.5 | > 50 | 0.77 | 0.08 | > 50 | 0.04 | 6.77 | 0.5 | > 50 | 1.35 | 0.03 | 0.2 | > 50 | 0.18 | 0.26 | 0.03 | 6.86 | > 50 | 1 | HIV Neutralization Potency [21]: 3.85 µg/mL; HIV Neutralization Potency [22]: 1.33 µg/mL; HIV Neutralization Potency [23]: 0.25 µg/mL; HIV Neutralization Potency [24]: > 50 µg/mL; HIV Neutralization Potency [25]: 1.3 µg/mL; HIV Neutralization Potency [26]: > 50 µg/mL; HIV Neutralization Potency [27]: 1.65 µg/mL; HIV Neutralization Potency [28]: 0.23 µg/mL; HIV Neutralization Potency [29]: 1.35 µg/mL; HIV Neutralization Potency [30]: 3.97 µg/mL; HIV Neutralization Potency [31]: 2.65 µg/mL; HIV Neutralization Potency [32]: 0.69 µg/mL; HIV Neutralization Potency [33]: 1.29 µg/mL; HIV Neutralization Potency [34]: 0.03 µg/mL; HIV Neutralization Potency [35]: 0.06 µg/mL; HIV Neutralization Potency [36]: 0.11 µg/mL; HIV Neutralization Potency [37]: 0.61 µg/mL; HIV Neutralization Potency [38]: 0.08 µg/mL; HIV Neutralization Potency [39]: 3.69 µg/mL; HIV Neutralization Potency [40]: 0.35 µg/mL |
| B2 | 11.6 | 0.32 | 27.1 | 0.73 | 0.06 | > 50 | 0.04 | 6.2 | 0.52 | > 50 | 1.09 | 0.05 | 0.16 | > 50 | 0.19 | 0.25 | 0.04 | 16.1 | 35.2 | 0.69 | HIV Neutralization Potency [21]: 2.19 µg/mL; HIV Neutralization Potency [22]: 1.42 µg/mL; HIV Neutralization Potency [23]: 0.19 µg/mL; HIV Neutralization Potency [24]: > 50 µg/mL; HIV Neutralization Potency [25]: 0.6 µg/mL; HIV Neutralization Potency [26]: > 50 µg/mL; HIV Neutralization Potency [27]: 1.43 µg/mL; HIV Neutralization Potency [28]: 0.19 µg/mL; HIV Neutralization Potency [29]: 1.17 µg/mL; HIV Neutralization Potency [30]: 3.59 µg/mL; HIV Neutralization Potency [31]: 3.78 µg/mL; HIV Neutralization Potency [32]: 0.79 µg/mL; HIV Neutralization Potency [33]: 0.87 µg/mL; HIV Neutralization Potency [34]: 0.05 µg/mL; HIV Neutralization Potency [35]: 0.06 µg/mL; HIV Neutralization Potency [36]: 0.13 µg/mL; HIV Neutralization Potency [37]: 0.61 µg/mL; HIV Neutralization Potency [38]: 0.1 µg/mL; HIV Neutralization Potency [39]: 2.79 µg/mL; HIV Neutralization Potency [40]: 0.41 µg/mL |
